Data: patent US10143737B2 (Bionor Immuno AS, priority 2014, dated 2018)

experiment: Fmoc solid-phase peptide synthesis; Tenta Gel P RAM, theoretical loading 0.20 meq/g; details: whole synthesis, analytical HPLC

Row | Substance | final HPLC purity
1 | KFIIPNIFSALGGAISYDLNTNILNCI | more than 80%
2 | KFIIPNIFSALSGGGAISYDLNTFLNCIG | more than 80%
3 | RNIPIPVGDIYGGGDIYKRWQALCL | 85%

experiment: general procedure: Fmoc solid-phase peptide synthesis; Tenta Gel P RAM, theoretical loading 0.20 meq/g; details: whole synthesis, analytical HPLC

Row | Substance | final HPLC purity
4 | KALGPGATLQTPWTACQGVG-NH2 | 87%
5 | RAIPIPAGTLLSGGGRAIYKRTAILG-NH2 | more than 95%
6 | RALGPAATLQTPWTASLGVG-NH2 | more than 95%
7 | RFIIPNIFTALSGGRRALLYGATPYAIG-NH2 | more than 95%
8 | RWLLLGLNPLVGGGRLYSPTSILG-NH2 | more than 95%
9 | WIIPGLNPLVGGGKLYSPTSILCG-NH2 | 95%
